Reference: PubChem BioAssay AID504834 (National Center for Advancing Translational Sciences (NCATS), 2011)
The entries are a selection whose mix differs from that of the whole data set. Records with an inconclusive call do not appear. Entries that show only a call come without a potency. Some salts and complexes are drawn in separate pieces, as the source files them; their charges need not balance. Activity calls are given as the source filed them. Calls come from the whole dose curve; as a rule, active = well fitted inhibition curve with a large enough effect; inconclusive = small, poorly fitted or top-dose-only effect, or another doubt; inactive = no such curve, though single readings can be large or run the other way.

Experiment: Primary qHTS for delayed death inhibitors of the malarial parasite plastid, 96 hour incubation
Conditions: P. falciparum luciferase reporter growth; series mostly up to 28.7 µM
Potency is the fitted concentration of half-maximal effect.

SMILES | Potency | activity change, negative = inhibition
O=C(OC1CN2CCC1CC2)C1c2ccccc2C=Cc2ccccc21 (stereo unspecified) | active: 13.1 µM | –
N/C(=N\O)c1c(N)no[n+]1[O-] | – | inactive: 1.36% [at 5.75 µM]
CCOC(=O)C(CC)C1=NC(C)(C)Cc2ccccc21.O=[N+]([O-])c1cc([N+](=O)[O-])c(O)c([N+](=O)[O-])c1 (stereo unspecified) | – | inactive
O=[N+]([O-])c1cc([N+](=O)[O-])c(NCC2CCS(=O)(=O)C2)c([N+](=O)[O-])c1 (stereo unspecified) | – | inactive
O=C(OC1CN2CCC1CC2)c1ccc([N+](=O)[O-])cc1 (stereo unspecified) | – | inactive
COc1ccc2c(c1O)-c1c(O)c(OC)cc3c1[C@H](C2)[N+](C)(C)CC3.O=[N+]([O-])c1cc([N+](=O)[O-])c([O-])c([N+](=O)[O-])c1[O-] | – | inactive
